Test results reported in the supplement of paper PMC9931576.
Human monoclonal antibodies against the spike receptor-binding domain (heavy:light variable regions). IC50 against pseudoviruses bearing the spike of naturally observed variants; lower = stronger; >10 µg/ml means not reached at the top dose. No active / inactive call. The stated detection limit is 0.0005 µg/ml; values near or below 0.001 µg/ml lie at the floor of the assay.

B1: BD55-6106 (protein)
chain 1: QLQLQESGPGLVKPSETLSLTCTISGGSMSSSSYYWGWIRQPPGKGLEWIGSIYYTGTTYYNPSLKSRVTISVDTSGKQFSLKLRSVTAADTAVYYCARHRGSGSYYGLDYWGQGTLVTVSS
chain 2: DIQMTQSPSSVSASVGSTVTITCRASQDISSWLVWYQQKPGKAPKLLIYSASNLQSGVPSRFSGSGSGTDFTLVISSLQPEDFATYYCQQANSFPLTFGGGTRVDIK
B2: BD55-6214 (protein)
chain 1: QVQLQQWGAGLLRPSETLSLTCAVYGGSFSGYYWSWIRQSPGKGLEWLGEIDHSGSTNYNPSLMTRVTISVDRSKNQFSLKLTSVTAADTAVYFCARVGRGYSAYDYYHYYFMDVWGKGSAVTVSS
chain 2: DNQMTQSPSSLSASVGDRVTITCRASQNLTRNLNWYQQKPGEAPKLLIYAASSLHGGVPSRFSGSGSGTDFTLTISSLQPEDFATYYCQQSYSPNTFGQGTKLEIK
B3: BD55-6203 (protein)
chain 1: QVQLVQSGAEVKKPGASVKVSCKASGYTFTDYYIHWVRQAPGQGLEWMAWIDPHSGDTDLVEKFRGRVTLSWDTSITTAYMELSRLKSDDTAVYFCARDLSGADVYGDSYWGQGSLVIVSS
chain 2: SSELTQDPAVSVALGQTVRITCQGDSLRNFYASWYQQKPGQAPVLVMYGKNHRPSGPADRFSGSRSGNTTLLTITGAQAEDEGDYYCNCRDSSGNHWVFGGGTKLTVL
B4: BD55-1171 (protein)
chain 1: QVHLVQSGTEVKRPGASVKVSCKASGYLFTGYHMHWVRQAPGQGLEWMGWINPMSGATKYARKFQGRVTLTRDTSVTTVYMELSRLRSDDSAVYYCARDTSFSVTTPDDAFDVWGQGTMVTVSS
chain 2: QSLLTQPPSVSGAPGQRVTISCTGSSSNIGAGYVVHWYQQLPGTAPKLLIYDNSSRPSGVPDRFSASKSGASASLAITGLQAEDEANYYCQSFDISLSLWVFGGGTKLTVL
B5: BD55-6210 (protein)
chain 1: QVQLVESGGGVVQPGRSLRLSCAASGFTFSDYGMHWVRQAPGKGLEWVAVISFDEKNTDHADSVKGRFTISRDNSKNTLYLQMNSLRPEDTAVYYCAKDRYDSSFYSLPYYYYYGMDVWGQGTTVTVSS
chain 2: DIQMTQSPSSLSASVGDRVTITCQASQDISNYLNWYQQKPGKAPKLLIYDAFTLQRGVPSRFSGSRSGTDFTFTISSLQPEDIATYYCQQYDNLPQTFGQGTKLEIK
B6: BD55-6099 (protein)
chain 1: QVQLEQSGAEVKKPGASVKVSCKVSGYTLTELSMHWVRQAPGKGLEWMGSFDPEDGDTIYAQNFQGRVTITEDTSTDTAYMELSSLRSDDTAVYYCATSGRYEYVWGTYRPRAFVIWGQGTMVTVSS
chain 2: QSALTQPPSASGSPGQSVTISCTGTSSDIGTYNYVSWYQQHPGKAPKLIIYEVSKRPSGVPDRFSGSKSGNSASLTVSGLQAEDEADYYCSSYAISLTSLYVFGTGTKVTVL

Columns and labels:
Experiment in all cases: pseudovirus neutralization IC50; higher = weaker neutralization
[1] = target: SARS-CoV-2 Omicron BA.1 spike pseudovirus
Protocol: (§1)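 Single-round VSV luciferase pseudovirus mixed with antibody dilutions for 1 h and put on Huh-7 cells for about a day; IC50 from the dose curve.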

[2] = target: SARS-CoV-2 Omicron BA.2 spike pseudovirus
Protocol: as §1

[3] = target: SARS-CoV-2 Omicron BA.2.75 spike pseudovirus
Protocol: as §1

[4] = target: SARS-CoV-2 Omicron BA.5 spike pseudovirus
Protocol: as §1

[5] = target: SARS-CoV-2 Omicron BQ.1.1 spike pseudovirus
Protocol: as §1

[6] = target: SARS-CoV-2 Omicron XBB spike pseudovirus
Protocol: as §1

[7] = target: SARS-CoV-2 early D614G spike pseudovirus
Protocol: as §1

| Binder | pseudovirus neutralization IC50 [1] | pseudovirus neutralization IC50 [2] | pseudovirus neutralization IC50 [3] | pseudovirus neutralization IC50 [4] | pseudovirus neutralization IC50 [5] | pseudovirus neutralization IC50 [6] | pseudovirus neutralization IC50 [7] |
| --- | --- | --- | --- | --- | --- | --- | --- |
| B1 | > 10 µg/mL | > 10 µg/mL | > 10 µg/mL | > 10 µg/mL | > 10 µg/mL | > 10 µg/mL | > 10 µg/mL |
| B2 | > 10 µg/mL | > 10 µg/mL | > 10 µg/mL | > 10 µg/mL | > 10 µg/mL | > 10 µg/mL | > 10 µg/mL |
| B3 | > 10 µg/mL | > 10 µg/mL | > 10 µg/mL | > 10 µg/mL | > 10 µg/mL | > 10 µg/mL | 0.0269 µg/mL |
| B4 | > 10 µg/mL | > 10 µg/mL | > 10 µg/mL | > 10 µg/mL | > 10 µg/mL | > 10 µg/mL | 0.00172 µg/mL |
| B5 | > 10 µg/mL | > 10 µg/mL | > 10 µg/mL | > 10 µg/mL | > 10 µg/mL | > 10 µg/mL | 6.01 µg/mL |
| B6 | > 10 µg/mL | > 10 µg/mL | > 10 µg/mL | > 10 µg/mL | > 10 µg/mL | > 10 µg/mL | > 10 µg/mL |
